# Patent publication US5053215A, “NMR-assayable ligand-labelled trifluorothymidine containing composition and method for diagnosis of HSV infection” (priority 1988, dated 1991)
# Test system: livers of mice infected with HSV-2
# Experiment: TFT (19F) concentration in mouse livers by 19F NMR spectroscopy after i.v. injection
# Format: in vivo, CBA/J mice; HSV-2 (333 strain)
# Details: 1:6 dilution, 10 min acquisition time, 7.05 T
smiles,measurement,value
"O=c1[nH]c(=O)n([C@H]2C[C@H](O)[C@@H](CO)O2)cc1C(F)(F)F [TFT, trifluorothymidine]",TFT tissue levels readily detected by 19F NMR,50-100 μg/g tissue
